In publication PMC12326988, “Synthetic host defense peptide inhibits SARS-CoV-2 replication in vitro” (Antimicrobial Agents and Chemotherapy, 2025):

Tested on: SARS-CoV-2 (Wuhan) spike-pseudotyped virus
Details: characterization of controls, Fig. S2E

## shACE2
  EC50, entry of pseudotyped virus into HEK293T-hACE2 cells: 0.93 µg/mL
